From article PMC3916700

Biological target: HIV-1 capsid (CA) A92E mutant (HIV-1)

Cyclophilin A (from UniProt P62937 1-165) (enzyme)
infectivity (percent GFP+ cells 72 hrs after transduction), ratio of 5 μM CsA to DMSO, H9 cells: 6 fold
infectivity (percent GFP+ cells 72 hrs after transduction), ratio of 5 μM CsA to DMSO, HeLa cells: 11 fold
